## Mutational tolerance of the Zika virus NS2B-NS3 protease

Data from the supplement of Ni et al. 2025, doi:10.1038/s41467-025-63602-z.

Chain scanned (Zika virus MR766; NS2B from position 2 to 131, then the start of NS3):
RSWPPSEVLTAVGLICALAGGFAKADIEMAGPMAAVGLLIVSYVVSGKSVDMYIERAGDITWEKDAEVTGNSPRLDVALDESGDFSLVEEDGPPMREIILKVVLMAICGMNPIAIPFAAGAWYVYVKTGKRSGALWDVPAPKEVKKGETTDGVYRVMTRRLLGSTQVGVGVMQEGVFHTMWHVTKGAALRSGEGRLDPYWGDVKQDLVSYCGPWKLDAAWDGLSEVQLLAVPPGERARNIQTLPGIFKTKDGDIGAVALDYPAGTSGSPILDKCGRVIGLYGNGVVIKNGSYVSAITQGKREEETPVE

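Mutant virus pools were grown in human Huh-7.5 cells. Sequencing of three replicate libraries (two for positions 207-308) was averaged into one effect per change. The aim was to find sites where inhibitor-binding pockets cannot change.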

Scale: log2 effect, wild type = 0; the lower, the more harmful to the virus. Each entry names the wild-type residue, its position and the residue put in its place. Six mutants with high scores were retested singly and none clearly outgrew wild type, so positive values are not proof of better growth. The authors count -1 or higher as tolerated. Position 1 is the last residue of NS2A. An asterisk is a stop codon; stop codons read about -7, near the floor of the assay. Positions 1-103, 104-206 and 207-308 were made and measured as separate libraries.

substitution,log2 growth effect
I246*,-7.34
I246A,-4.24
I246C,0.16
I246D,-4.90
I246E,-4.33
I246F,0.40
I246G,-5.64
I246H,-4.71
I246K,-5.18
I246L,-0.11
I246M,-5.05
I246N,-5.21
I246P,-5.98
I246Q,-2.91
I246R,-5.56
I246S,-6.04
I246T,-0.40
I246V,0.83
I246W,1.66
I246Y,-0.19
F247*,-7.93
F247A,-6.65
F247C,-6.13
F247D,-5.72
F247E,-5.86
F247G,-6.99
F247H,-5.60
F247I,-5.84
F247K,-6.08
F247L,-7.47
F247M,-5.33
F247N,-5.69
F247P,-6.47
F247Q,-5.82
F247R,-7.28
F247S,-6.85
F247T,-6.65
F247V,-6.87
F247W,-6.13
F247Y,-5.57
K248*,-8.87
K248A,-2.53
K248C,0.21
K248D,-5.89
K248E,-4.87
K248F,-3.41
K248G,-7.02
K248H,0.72
K248I,0.08
K248L,-3.94
K248M,-0.05
K248N,-6.73
K248P,-7.00
K248Q,-2.03
K248R,1.05
K248S,-1.19
K248T,-3.79
K248V,0.47
K248W,-6.19
K248Y,-2.07
T249*,-6.96
T249A,-6.22
T249C,-0.53
T249D,-4.99
T249E,-4.69
T249F,-5.38
T249G,-6.13
T249H,-5.79
T249I,-4.03
T249K,-3.10
T249L,1.32
T249M,1.17
T249N,-5.73
T249P,-7.19
T249Q,-5.10
T249R,-6.86
T249S,-7.00
T249V,-5.99
T249W,-4.93
T249Y,-5.38
K250*,-8.47
K250A,-2.56
K250C,-1.77
K250D,-5.05
K250E,-5.83
K250F,-6.17
K250G,-4.06
K250H,-5.16
K250I,-2.99
K250L,-6.68
K250M,-3.11
K250N,-6.72
K250P,-1.46
K250Q,-0.95
K250R,-0.73
K250S,-2.27
K250T,-2.66
K250V,-1.91
K250W,-6.18
K250Y,-6.04

The opening 13 entries, copied out:

{"substitution": "I246*", "log2 growth effect": -7.34}
{"substitution": "I246A", "log2 growth effect": -4.24}
{"substitution": "I246C", "log2 growth effect": 0.16}
{"substitution": "I246D", "log2 growth effect": -4.90}
{"substitution": "I246E", "log2 growth effect": -4.33}
{"substitution": "I246F", "log2 growth effect": 0.40}
{"substitution": "I246G", "log2 growth effect": -5.64}
{"substitution": "I246H", "log2 growth effect": -4.71}
{"substitution": "I246K", "log2 growth effect": -5.18}
{"substitution": "I246L", "log2 growth effect": -0.11}
{"substitution": "I246M", "log2 growth effect": -5.05}
{"substitution": "I246N", "log2 growth effect": -5.21}
{"substitution": "I246P", "log2 growth effect": -5.98}